Experimental data taken from publication PMC3984054 (Bioorganic & medicinal chemistry, 2013).

Tested on: dividing ScN2a-cl3 cells

## Dextran
  LC50 in dividing cells (text and footnote): > 10 µM
